The text below walks through data of paper PMC6271975, “Structure-Activity Relationship Study of Sesquiterpene Lactones and Their Semi-Synthetic Amino Derivatives as Potential Antitrypanosomal Products” (Molecules, 2014).

This assay deals with T. b. rhodesiense STIB 900 bloodstream forms. In words: In vitro antitrypanosomal Alamar Blue assay. The class given is cell-based, Trypanosoma brucei rhodesiense. The note with it: IC50 against L6 cells divided by IC50 against STIB 900 strain.

Molecules are shown by their SMILES.

`C=C1C(=O)O[C@@H]2/C=C(/C)[C@@H](O)C/C=C(\C)C[C@H](OC(=O)/C(C)=C\C)[C@@H]12` [Compound 14, Nobilin] registered an SI (Selectivity Index) of 3.4.
